Results of unrelated studies side by side (data: NIAID ChemDB).

Common to all: whole-cell or culture tests; organism: Mycobacterium avium complex; endpoint: MIC

Rows are shuffled and stem from different studies.

smiles,strain or isolate,read by,result
CC[C@@H](CO)NCCN[C@@H](CC)CO,3219,,32 µg/mL
CCn1cc(C(=O)O)c(=O)c2cc(F)c(N3CCNCC3)cc21,CIPT 140310031,,20 µg/mL
CC[C@H]1OC(=O)[C@H](C)[C@@H](O[C@H]2C[C@@](C)(OC)[C@@H](O)[C@H](C)O2)[C@H](C)[C@@H](O[C@@H]2O[C@H](C)C[C@H](N(C)C)[C@H]2O)[C@](C)(O)C[C@@H](C)C(=O)[C@H](C)[C@@H](O)[C@]1(C)O,3212,,64 µg/mL
O=C(O)c1cn(C2CC2)c2c(F)c(N3CC4CCCC(C3)N4)c(F)cc2c1=O,1988557,,4 µg/mL
NC[C@@H]1O[C@H](O[C@H]2[C@@H](O)[C@H](O[C@@H]3[C@@H](O)[C@H](N)C[C@H](N)[C@H]3O[C@H]3O[C@H](CO)[C@@H](O)[C@H](O)[C@H]3N)O[C@@H]2CO)[C@H](N)[C@@H](O)[C@@H]1O,TMC 1411,,0.19 µg/mL
NC[C@H]1O[C@H](O[C@H]2[C@H](O)[C@@H](O[C@H]3O[C@H](CO)[C@@H](O)[C@H](N)[C@H]3O)[C@H](N)C[C@@H]2N)[C@H](O)[C@@H](O)[C@@H]1O,N-316 (HIV-),,2 µg/mL
CC1CN(c2c(F)c(N)c3c(=O)c(C(=O)O)cn(C4CC4)c3c2F)CCN1C,1915112,,1 µg/mL
CC(C)N=c1cc2n(-c3ccc(Cl)cc3)c3ccccc3nc-2cc1Nc1ccc(Cl)cc1,1295/HIV-,,0.12 µg/mL
CC[C@@H](CO)NCCN[C@@H](CC)CO,9838,,7.5 µg/mL
NCC[C@H](O)C(=O)N[C@@H]1C[C@H](N)[C@@H](O[C@H]2O[C@H](CN)[C@@H](O)[C@H](O)[C@H]2O)[C@H](O)[C@H]1O[C@H]1O[C@H](CO)[C@@H](O)[C@H](N)[C@H]1O,3214,,4 µg/mL
CC[C@@H](CO)NCCN[C@@H](CC)CO,1124,,8 µg/mL
NNC(=O)c1ccncc1,13011 (serotype 16),,0.8 µg/mL
C[C@@H]1CN(c2c(F)c(N)c3c(=O)c(C(=O)O)cn(C4CC4)c3c2F)C[C@H](C)N1,14,broth dilution,1 µg/mL
CN[C@@H]1[C@@H](O)[C@@H](O[C@@H]2[C@@H](O)[C@H](O[C@H]3O[C@H](CN)CC[C@H]3N)[C@@H](N)C[C@H]2N)OC[C@]1(C)O,TMC 1467,,0.01 µg/mL
CC1CN(c2c(F)cc3c(=O)c(C(=O)O)cn(C4CC4)c3c2F)CCN1,1988557,,1 µg/mL
NCCC(O)C(N)CC(=O)NC1CNC(=O)C(C2CCN=C(N)N2)NC(=O)/C(=C/NC(N)=O)NC(=O)C(CO)NC(=O)C(CO)NC1=O,Isolate 53,,6.25 µg/mL
CC1CN(c2c(F)cc3c(=O)c(C(=O)O)cn(C4CC4)c3c2F)CC(C)N1,PI12/39,,1 µg/mL
CO[C@H]1/C=C/O[C@@]2(C)Oc3c(C)c(O)c4c(O)c(c(/C=N/N5CCN(C/C=C/c6ccccc6)CC5)c(O)c4c3C2=O)NC(=O)/C(C)=C\C=C\[C@H](C)[C@H](O)[C@@H](C)[C@@H](O)[C@@H](C)[C@H](OC(C)=O)[C@@H]1C,LR541,,0.015 µg/mL
CO[C@H]1/C=C/O[C@@]2(C)Oc3c(C)c(O)c4c(O)c(c(/C=N/N5CCN(C)CC5)c(O)c4c3C2=O)NC(=O)/C(C)=C\C=C\[C@H](C)[C@H](O)[C@@H](C)[C@@H](O)[C@@H](C)[C@H](OC(C)=O)[C@@H]1C,1295/HIV-,,2 µg/mL
NC[C@@H]1O[C@H](O[C@H]2[C@@H](O)[C@H](O[C@@H]3[C@@H](O)[C@H](N)C[C@H](N)[C@H]3O[C@H]3O[C@H](CO)[C@@H](O)C[C@H]3N)O[C@@H]2CO)[C@H](N)[C@@H](O)[C@@H]1O[C@H]1O[C@H](CO)[C@@H](O)[C@H](O)[C@@H]1O,TMC 1406,,0.39 µg/mL
CCn1cc(C(=O)O)c(=O)c2cc(F)c(N3CCNCC3)nc21,CIPT 140310034,,10 µg/mL
NC[C@@H]1O[C@H](O[C@H]2[C@@H](O)[C@H](O[C@@H]3[C@@H](O)[C@H](N)C[C@H](N)[C@H]3O[C@H]3O[C@H](CO)[C@@H](O)[C@H](O)[C@H]3N)O[C@@H]2CO)[C@H](N)[C@@H](O)[C@@H]1O,562/HIV+,,<1.56 µg/mL
NCC1CCN(c2c(F)cc3c(=O)c(C(=O)O)cn(C4CC4)c3c2F)C1,PI12/39,,2 µg/mL
NCC[C@H](O)C(=O)N[C@@H]1C[C@H](N)[C@@H](O[C@H]2O[C@H](CN)[C@@H](O)[C@H](O)[C@H]2O)[C@H](O)[C@H]1O[C@H]1O[C@H](CO)[C@@H](O)[C@H](N)[C@H]1O,SK32/HIV+,,8 µg/mL
CC[C@@H](CO)NCCN[C@@H](CC)CO,N-259 (HIV-),,32 µg/mL
CO[C@H]1/C=C/O[C@@]2(C)Oc3c(C)c(O)c4c(O)c(c(/C=N/N5CCN(C)CC5)c(O)c4c3C2=O)NC(=O)/C(C)=C\C=C\[C@H](C)[C@H](O)[C@@H](C)[C@@H](O)[C@@H](C)[C@H](OC(C)=O)[C@@H]1C,1129,,2 µg/mL
CN[C@@H]1[C@H](O[C@H]2[C@H](O[C@H]3[C@H](O)[C@@H](O)[C@H](N=C(N)N)[C@@H](O)[C@@H]3N=C(N)N)O[C@@H](C)[C@]2(O)C=O)O[C@@H](CO)[C@H](O)[C@H]1O,Isolate C-16,,>400 µg/mL
CC[C@@H](CO)NCCN[C@@H](CC)CO,13011 (serotype 16),,1.6 µg/mL
CN(C)CC1CCN(c2c(F)cc3c(=O)c(C(=O)O)cn(C4CC4)c3c2F)C1,1172733,,0.5 µg/mL

2 of the rows above, restated:

{"smiles": "NNC(=O)c1ccncc1", "strain or isolate": "13011 (serotype 16)", "result": "0.8 µg/mL"}
{"smiles": "NC[C@@H]1O[C@H](O[C@H]2[C@@H](O)[C@H](O[C@@H]3[C@@H](O)[C@H](N)C[C@H](N)[C@H]3O[C@H]3O[C@H](CO)[C@@H](O)[C@H](O)[C@H]3N)O[C@@H]2CO)[C@H](N)[C@@H](O)[C@@H]1O", "strain or isolate": "562/HIV+", "result": "<1.56 µg/mL"}

An empty or dashed field is not shown.